Patent US6130250A, “Veterinary use of a pleuromutilin derivative” (priority 1996, dated 2000)
Counter-ions that a name gives are not always drawn.

System: Serpulina hyodysenteriae
Experiment: MIC determination on agar, 10 S. hyodysenteriae strains
Format: cell-based

C=C[C@]1(C)C[C@@H](OC(=O)CSC(C)(C)CNC(=O)[C@H](N)C(C)C)[C@]2(C)[C@H](C)CC[C@]3(CCC(=O)[C@H]32)[C@@H](C)[C@@H]1O [valnemulin hydrochloride, 14-O-[1-[(R)-2-amino-3-methylbutyrylamino]-2-methylpropan-2-ylthioacetyl]mutilin] was tested, and the “number of strains with MIC 0.0625 μg/ml” value was 3.
